Measured values from several laboratories, pooled; numbers as filed in NIAID ChemDB.

Common to all: cytotoxicity tests; cell line: MT-4; measure: CC50

Lines come from different laboratories, so protocols vary. CCn: concentration that lowers growth or viability of the cells by n%. An empty or dashed field is not shown.

smiles,read by,result
CC1(C)c2nc(C(=O)NCc3ccc(F)cc3)c(O)c(=O)n2CCN1CC#N,microscopy,>1 µM
O=C(O)c1ccc(Nc2nc3ccccc3n3cccc23)cc1,MTT,100 µM
O=c1c2ccccc2nc2scnn12,MTT,>63.7 µg/mL
CCOC(=O)c1cccn1S(=O)(=O)c1ccc([N+](=O)[O-])cc1,,>200 µM
O=C(OCC1OC(OC(=O)c2cc(O)c(O)c(O)c2)C2OC(=O)c3cc(O)c(O)c(O)c3-c3c(cc(O)c(O)c3O)C(=O)OC2C1OC(=O)c1cc(O)c(O)c(O)c1Oc1cc2c(c(O)c1O)-c1c(cc(O)c(O)c1O)C(=O)OC1C(COC2=O)OC(OC(=O)c2cc(O)c(O)c(O)c2)C2OC(=O)c3cc(O)c(O)c(O)c3-c3c(cc(O)c(O)c3O)C(=O)OC12)c1cc(O)c(O)c(O)c1,,34.8 µg/mL
O=C(CCCCCNCc1ccccc1)Nc1ccn([C@H]2CS[C@@H](COC(=O)CCCCCNCc3ccccc3)O2)c(=O)n1,,>50 µM
O=C1CC2CCC1C1C(=O)N(CCCCN3CCN(c4ccc(F)cc4)CC3)C(=O)C21,MTT,>100 µM
CCOC(=O)c1cccn1S(=O)(=O)c1cccc(NC(N)=O)c1,,>200 µM
Nc1ncnc2c1ncn2[C@@H]1CO[C@H](CO)[C@@H](O)C1,,12.5 µg/mL
CCS(=O)(=O)NC(=O)c1[nH]c2ccc(Cl)cc2c1S(=O)(=O)c1cc(C)cc(C)c1,MTT,147 µM
Nc1nc2c(ncn2C[C@H](CO)OCP(=O)(O)O)c(=O)[nH]1,,9 µM
O=C(O[C@@H]1[C@H](c2c(O)cc(O)c3c2O[C@H](c2ccc(O)c(O)c2)[C@H](OC(=O)c2cc(O)c(O)c(O)c2)C3)c2c(O)cc(O)c([C@H]3c4c(O)cc(O)c([C@@H]5c6c(O)cc(O)cc6O[C@H](c6ccc(O)c(O)c6)[C@@H]5OC(=O)c5cc(O)c(O)c(O)c5)c4O[C@H](c4ccc(O)c(O)c4)[C@@H]3OC(=O)c3cc(O)c(O)c(O)c3)c2O[C@@H]1c1ccc(O)c(O)c1)c1cc(O)c(O)c(O)c1,,55.5 µg/mL
O=C1NCc2c1ccnc2-c1cc(-c2cc(F)cc(Cl)c2)n(-c2cccc(Cl)c2)n1,resazurin,>3.3 µM
CCOC(=O)CCC(NC(=O)c1ccc(OCc2nc3ccccc3n3cccc23)cc1)C(=O)OCC,MTT,>100 µM
Cc1cc2oc(=O)c(C(=O)/C=C/c3ccc(N(C)C)cc3)c(O)c2cc1Cl,,>125 µg/mL
O=C(OC1OC2COC(=O)c3cc(O)c(O)c(O)c3-c3c(cc(O)c(O)c3O)C(=O)OC2C(OC(=O)c2cc(O)c(O)c(O)c2)C1O)c1cc(O)c(O)c(O)c1,,23.2 µg/mL
Cc1cc2oc(=O)c(C(=O)/C=C/c3cccc([N+](=O)[O-])c3)c(O)c2cc1Cl,,66.5 µg/mL
CCN(C(=O)C(=O)N(C)C)C1CN(C)CCn2c1nc(C(=O)NCc1ccc(F)c(C)c1)c(O)c2=O,microscopy,>1 µM
O=C1Nc2ccc(Cl)cc2S(=O)(=O)n2cccc21,,>200 µM
Nc1ncnc2c1ncn2C[C@@H](CF)OCP(=O)(O)O,,>300 µM
ClCc1nc2ccccc2n2cccc12,MTT,6 µM
O=C1O[C@H]2[C@H]3OC(=O)c4cc(O)c(O)c(O)c4-c4c(cc(Oc5c(C(=O)O[C@@H]6O[C@@H]7COC(=O)c8cc(O)c(O)c(O)c8-c8c(cc(O)c(O)c8O)C(=O)O[C@H]7[C@H](OC(=O)c7cc(O)c(O)c(O)c7)[C@H]6OC(=O)c6cc(O)c(O)c(O)c6)cc(O)c(O)c5O)c(O)c4O)C(=O)OC[C@H]2O[C@H](OC(=O)c2cc(O)c(O)c(O)c2)[C@H]3OC(=O)c2cc(O)c(O)c3c2C2C1=CC(=O)C(O)(O)C2(O)O3,,37.4 µg/mL
CC1c2nc(C(=O)NCc3ccc(F)cc3)c(O)c(=O)n2CCN1Cc1ccnn1C,microscopy,>1 µM
CCOC(=O)c1ccc(OCc2nc3cc(C(F)(F)F)ccc3n3cccc23)cc1,MTT,>100 µM
O=CC(OC(=O)c1cc(O)c(O)c(O)c1Oc1cc2c(=O)oc3c(O)c(O)cc4c(=O)oc(c1O)c2c34)C(OC(=O)c1cc(O)c(O)c(O)c1)C1C(=O)Oc2cc(Oc3c(C(=O)O)cc(O)c(O)c3O)c(O)c(O)c2-c2c(cc(O)c(O)c2O)C(=O)OCC1O,,31.9 µg/mL
O=C1NCc2c1ccnc2-c1cc(-c2cc(F)cc(OC(F)F)c2)n(-c2ccc(F)c(Cl)c2)n1,resazurin,>3.3 µM
CN(C)C(=O)C(=O)N1CCc2nc(C(=O)NCc3ccc(F)cc3)c(O)c(=O)n2CC1,microscopy,>1 µM
Cc1cc(C)cc(S(=O)(=O)c2c(C(=O)N[C@H]3CCNC3)[nH]c3ccc(Cl)cc23)c1,MTT,10.02 µM
COc1ccc(Nc2nn3c(=O)c4ccccc4nc3s2)cc1,MTT,>99.15 µg/mL
Cc1cc(F)cc(-c2cc(-c3nccc4c3CNC4=O)nn2-c2ccc(F)c(Cl)c2)c1,resazurin,>3.3 µM
Nc1nc2c(ncn2[C@@H]2CO[C@H](CO)[C@@H](O)C2)c(=O)[nH]1,,21 µg/mL
O=C1CC2CCC1C1C(=O)N(CCCCN3CCN(c4ncccn4)CC3)C(=O)C21,MTT,>100 µM
CC(C)(C)OC(=O)N(CCCCCC(=O)OC[C@H]1O[C@@H](n2ccc(N)nc2=O)CS1)CCCCN(Cc1ccccc1)C(=O)OC(C)(C)C,,10 µM
Cc1cc(C)cc(S(=O)(=O)c2c(C(=O)NS(=O)(=O)C(F)(F)F)[nH]c3ccc(Cl)cc23)c1,MTT,253 µM
COc1cccc(-n2nc(-c3nccc4c3CNC4=O)cc2-c2ccnc(Cl)c2)c1,resazurin,>3.3 µM
Cc1cc(C)cc(S(=O)(=O)c2c(C(=O)NS(=O)(=O)c3ccc(F)cc3F)[nH]c3ccc(Cl)cc23)c1,MTT,167 µM
S=C(Nc1ccc(Cl)cc1)NC1CCN(Cc2ccccc2)CC1,MTT,18 µM
O=C1NCc2c1cccc2-c1cc(-c2cc(F)cc(OC(F)(F)F)c2)n(-c2cccnc2)n1,resazurin,>3.3 µM
O=C(O[C@@H]1Cc2c(O)cc(O)cc2O[C@@H]1c1cc(O)c(O)c(O)c1)c1cc(O)c(O)c(O)c1,,16.7 µg/mL
Nc1nc(N)c2ncn(C[C@@H](CO)OCP(=O)(O)O)c2n1,,56 µM
S=C(Nc1ccc(Cl)c(Cl)c1)NC1CCN(Cc2ccccc2)CC1,MTT,7.3 µM
N#Cc1cc(-n2nc(-c3cccc4c3CNC4=O)cc2-c2cc(F)cc(Cl)c2)ccc1F,resazurin,>3.3 µM
Fc1ccc(NC(=S)NC2CCN(Cc3ccccc3)CC2)cc1,MTT,34 µM
Cc1ccc(C(C)C)c2oc(=O)c(C(=O)/C=C/c3cccc([N+](=O)[O-])c3)c(O)c12,,13.1 µg/mL
CC(C)(C)OC(=O)N(CCCCCC(=O)OC[C@H]1O[C@@H](n2ccc(N)nc2=O)CS1)CCCCCN(Cc1ccccc1)C(=O)OC(C)(C)C,,50 µM
Cc1cn([C@@H]2CO[C@H](CO)[C@@H](O)C2)c(=O)[nH]c1=O,,>100 µg/mL
O=C1CC2CCC1C1C(=O)N(CC(O)CN3CCCCC3)C(=O)C21,MTT,>100 µM
COc1ccc(/C=C/C(=O)c2c(O)c3c(C)ccc(C(C)C)c3oc2=O)cc1,,>125 µg/mL
Nc1ccn([C@H]2CS[C@@H](COC(=O)CCCCCNCCCCNCc3ccccc3)O2)c(=O)n1,,>50 µM
COc1ccccc1N1CCN(CCCCN2C(=O)C3C4CCC(C(=O)C4)C3C2=O)CC1,MTT,>100 µM
COc1cc(OC)cc(OCc2nc3ccccc3n3cccc23)c1,MTT,>100 µM
C[C@@H](Cn1cnc2c(=O)[nH]c(N)nc21)OCP(=O)(O)O,,123 µM
CCOC(=O)c1cccn1S(=O)(=O)c1cc(Cl)ccc1NC(=O)CS(C)(=O)=O,,>200 µM
O=C(CCCCCNCCCCNCc1ccccc1)Nc1ccn([C@H]2CS[C@H](COC(=O)CCCCCNCCCCNCc3ccccc3)O2)c(=O)n1,,>50 µM
S=C(NCc1ccco1)Nc1ccccc1Br,MTT,100 µM
O=C1NCc2c1cccc2-c1cc(-c2cncc(Cl)c2)n(-c2ccc(F)c(Cl)c2)n1,resazurin,>3.3 µM
Cc1cc(C)cc(S(=O)(=O)c2c(C(=O)N[C@@H]3CCN(S(C)(=O)=O)C3)[nH]c3ccc(Cl)cc23)c1,MTT,23.95 µM
CN(C)C(=O)C(=O)N1CCn2c(nc(C(=O)NCc3ccc(F)cc3)c(O)c2=O)C1(C)C,microscopy,>1 µM

Again, the opening 6 rows:

CC1(C)c2nc(C(=O)NCc3ccc(F)cc3)c(O)c(=O)n2CCN1CC#N ; read by: microscopy ; result: >1 µM
O=C(O)c1ccc(Nc2nc3ccccc3n3cccc23)cc1 ; read by: MTT ; result: 100 µM
O=c1c2ccccc2nc2scnn12 ; read by: MTT ; result: >63.7 µg/mL
CCOC(=O)c1cccn1S(=O)(=O)c1ccc([N+](=O)[O-])cc1 ; result: >200 µM
O=C(OCC1OC(OC(=O)c2cc(O)c(O)c(O)c2)C2OC(=O)c3cc(O)c(O)c(O)c3-c3c(cc(O)c(O)c3O)C(=O)OC2C1OC(=O)c1cc(O)c(O)c(O)c1Oc1cc2c(c(O)c1O)-c1c(cc(O)c(O)c1O)C(=O)OC1C(COC2=O)OC(OC(=O)c2cc(O)c(O)c(O)c2)C2OC(=O)c3cc(O)c(O)c(O)c3-c3c(cc(O)c(O)c3O)C(=O)OC12)c1cc(O)c(O)c(O)c1 ; result: 34.8 µg/mL
O=C(CCCCCNCc1ccccc1)Nc1ccn([C@H]2CS[C@@H](COC(=O)CCCCCNCc3ccccc3)O2)c(=O)n1 ; result: >50 µM